The record followed here is publication PMC8059821.

This assay deals with PgCoV-RBD-Fc (pangolin coronavirus (PgCoV)). The assay is described as follows: SPR. The note with it: domain or fragment.

Broadly, the Kd is a measure of binding affinity in units of concentration. Low readings indicate higher affinity, high ones lower affinity. With “monomeric tagged soluble pangolin ACE2 (pangolin ACE2-CT)”, the Kd was found to be 0.93 µM.
